Source: article PMC6669600 (Viruses, 2019)

Columns and labels:
[1] = tested on: HIV-1HXB2 Env-mediated cell-cell fusion; type: cell-based; conditions: TZM-bl target, HL2/3 effector, 6 h coculture at 37 C, luciferase; triplicate, repeated three times, mean ± SD; SD; read-out: IC50, inhibition of HIV-1HXB2 Env-mediated cell-cell fusion
[2] = target: N36 (gp41 NHR-derived target mimic peptide) (Human immunodeficiency virus type 1 group M subtype B, UniProt P04578); assay: CD spectroscopy of inhibitor complexed with N36; type: binding, HIV-1; conditions: thermal denaturation of complex at 222 nm, 20-98 C, 2 C/min, each peptide 10 μM in PBS; repeated two times, representative data

Structure (SMILES)	IC50 [1] [nM]	CD data (with N36) Tm (°C) [2] [°C]
CC[C@H](C)[C@H](NC(=O)[C@H](CC(C)C)NC(=O)[C@H](CCC(=O)O)NC(=O)[C@H](CCC(=O)O)NC(=O)[C@@H](NC(=O)[C@H](CCCCN)NC(=O)[C@H](CCCCN)NC(=O)[C@@H](NC(=O)[C@H](Cc1ccc(O)cc1)NC(=O)[C@H](CCC(=O)O)NC(=O)[C@H](CCC(=O)O)NC(=O)[C@@H](NC(=O)[C@H](CCCCN)NC(=O)[C@H](CCCCN)NC(=O)[C@H](CC(=O)O)NC(=O)[C@H](Cc1c[nH]c2ccccc12)NC(=O)[C@H](CCC(=O)O)NC(=O)[C@H](CCC(=O)O)NC(=O)[C@H](Cc1c[nH]c2ccccc12)NC(C)=O)[C@@H](C)CC)[C@@H](C)O)[C@@H](C)CC)C(=O)N[C@@H](CCCCN)C(=O)N[C@@H](CCCCN)C(=O)N[C@@H](CO)C(=O)N[C@@H](CCC(=O)O)C(=O)N[C@@H](CCC(=O)O)C(=O)N[C@@H](CCC(N)=O)C(=O)N[C@@H](CCC(N)=O)C(N)=O [SC26EK]	36.2 ± 4.2	57.8
CC[C@H](C)[C@H](NC(=O)[C@H](CC(C)C)NC(=O)[C@H](CCC(=O)O)NC(=O)[C@H](CCC(=O)O)NC(=O)[C@@H](NC(=O)[C@H](CCCCN)NC(=O)[C@H](CCCCN)NC(=O)[C@@H](NC(=O)[C@H](Cc1ccc(O)cc1)NC(=O)[C@H](CCC(=O)O)NC(=O)[C@H](CCC(=O)O)NC(=O)[C@@H](NC(=O)[C@H](CCCCN)NC(=O)[C@H](CCCCN)NC(=O)[C@H](CC(=O)O)NC(=O)[C@H](Cc1c[nH]c2ccccc12)NC(=O)[C@H](CCC(=O)O)NC(=O)[C@H](CCC(=O)O)NC(=O)[C@H](Cc1c[nH]c2ccccc12)NC(C)=O)[C@@H](C)CC)[C@@H](C)O)[C@@H](C)CC)C(=O)N[C@@H](CCCCN)C(=O)N[C@@H](CCCCN)C(=O)N[C@@H](CO)C(=O)N[C@@H](CCC(=O)O)C(=O)N[C@@H](CCC(=O)O)C(=O)N[C@@H](CCC(N)=O)C(=O)N[C@@H](CCC(N)=O)C(=O)N[C@@H](CCCCN)C(N)=O [SC27EK]	21.4 ± 2.5	57.8
CC[C@H](C)[C@H](NC(=O)[C@H](CC(C)C)NC(=O)[C@H](CCC(=O)O)NC(=O)[C@H](CCC(=O)O)NC(=O)[C@@H](NC(=O)[C@H](CCCCN)NC(=O)[C@H](CCCCN)NC(=O)[C@@H](NC(=O)[C@H](Cc1ccc(O)cc1)NC(=O)[C@H](CCC(=O)O)NC(=O)[C@H](CCC(=O)O)NC(=O)[C@@H](NC(=O)[C@H](CCCCN)NC(=O)[C@H](CCCCN)NC(=O)[C@H](CC(=O)O)NC(=O)[C@H](Cc1c[nH]c2ccccc12)NC(=O)[C@H](CCC(=O)O)NC(=O)[C@H](CCC(=O)O)NC(=O)[C@H](Cc1c[nH]c2ccccc12)NC(C)=O)[C@@H](C)CC)[C@@H](C)O)[C@@H](C)CC)C(=O)N[C@@H](CCCCN)C(=O)N[C@@H](CCCCN)C(=O)N[C@@H](CO)C(=O)N[C@@H](CCC(=O)O)C(=O)N[C@@H](CCC(=O)O)C(=O)N[C@@H](CCC(N)=O)C(=O)N[C@@H](CCC(N)=O)C(=O)N[C@@H](CCCCN)C(=O)N[C@@H](CCCCN)C(=O)N[C@@H](CC(N)=O)C(=O)N[C@@H](CCC(=O)O)C(N)=O [SC30EK]	0.9 ± 0.1	68.4
CC[C@H](C)[C@H](NC(=O)[C@H](CC(C)C)NC(=O)[C@H](CCC(=O)O)NC(=O)[C@H](CCC(=O)O)NC(=O)[C@@H](NC(=O)[C@H](CCCCN)NC(=O)[C@H](CCCCN)NC(=O)[C@@H](NC(=O)[C@H](Cc1ccc(O)cc1)NC(=O)[C@H](CCC(=O)O)NC(=O)[C@H](CCC(=O)O)NC(=O)[C@@H](NC(=O)[C@H](CCCCN)NC(=O)[C@H](CCCCN)NC(=O)[C@H](CC(=O)O)NC(=O)[C@H](Cc1c[nH]c2ccccc12)NC(=O)[C@H](CCC(=O)O)NC(=O)[C@H](CCC(=O)O)NC(=O)[C@H](Cc1c[nH]c2ccccc12)NC(C)=O)[C@@H](C)CC)[C@@H](C)O)[C@@H](C)CC)C(=O)N[C@@H](CCCCN)C(=O)N[C@@H](CCCCN)C(=O)N[C@@H](CO)C(=O)N[C@@H](CCC(=O)O)C(=O)N[C@@H](CCC(=O)O)C(=O)N[C@@H](CCC(N)=O)C(=O)N[C@@H](CCC(N)=O)C(=O)N[C@@H](CCCCN)C(=O)N[C@@H](CCCCN)C(=O)N[C@@H](CC(N)=O)C(=O)N[C@@H](CCC(=O)O)C(=O)N[C@@H](CCCCN)C(N)=O [SC31EK]	0.9 ± 0.3	68.6
CC[C@H](C)[C@H](NC(=O)[C@H](CC(C)C)NC(=O)[C@H](CCC(=O)O)NC(=O)[C@H](CCC(=O)O)NC(=O)[C@@H](NC(=O)[C@H](CCCCN)NC(=O)[C@H](CCCCN)NC(=O)[C@@H](NC(=O)[C@H](Cc1ccc(O)cc1)NC(=O)[C@H](CCC(=O)O)NC(=O)[C@H](CCC(=O)O)NC(=O)[C@@H](NC(=O)[C@H](CCCCN)NC(=O)[C@H](CCCCN)NC(=O)[C@H](CC(=O)O)NC(=O)[C@H](Cc1c[nH]c2ccccc12)NC(=O)[C@H](CCC(=O)O)NC(=O)[C@H](CCC(=O)O)NC(=O)[C@H](Cc1c[nH]c2ccccc12)NC(C)=O)[C@@H](C)CC)[C@@H](C)O)[C@@H](C)CC)C(=O)N[C@@H](CCCCN)C(=O)N[C@@H](CCCCN)C(=O)N[C@@H](CO)C(=O)N[C@@H](CCC(=O)O)C(=O)N[C@@H](CCC(=O)O)C(=O)N[C@@H](CCC(N)=O)C(=O)N[C@@H](CCC(N)=O)C(=O)N[C@@H](CCCCN)C(=O)N[C@@H](CCCCN)C(=O)N[C@@H](CC(N)=O)C(=O)N[C@@H](CCC(=O)O)C(=O)N[C@@H](CCCCN)C(=O)N[C@@H](CCC(=O)O)C(N)=O [SC32EK]	0.8 ± 0.2	69.7
CC[C@H](C)[C@H](NC(=O)[C@H](CC(C)C)NC(=O)[C@H](CCC(=O)O)NC(=O)[C@H](CCC(=O)O)NC(=O)[C@@H](NC(=O)[C@H](CCCCN)NC(=O)[C@H](CCCCN)NC(=O)[C@@H](NC(=O)[C@H](Cc1ccc(O)cc1)NC(=O)[C@H](CCC(=O)O)NC(=O)[C@H](CCC(=O)O)NC(=O)[C@@H](NC(=O)[C@H](CCCCN)NC(=O)[C@H](CCCCN)NC(=O)[C@H](CC(=O)O)NC(=O)[C@H](Cc1c[nH]c2ccccc12)NC(=O)[C@H](CCC(=O)O)NC(=O)[C@H](CCC(=O)O)NC(=O)[C@H](Cc1c[nH]c2ccccc12)NC(C)=O)[C@@H](C)CC)[C@@H](C)O)[C@@H](C)CC)C(=O)N[C@@H](CCCCN)C(=O)N[C@@H](CCCCN)C(=O)N[C@@H](CO)C(=O)N[C@@H](CCC(=O)O)C(=O)N[C@@H](CCC(=O)O)C(=O)N[C@@H](CCC(N)=O)C(=O)N[C@@H](CCC(N)=O)C(=O)N[C@@H](CCCCN)C(=O)N[C@@H](CCCCN)C(=O)N[C@@H](CC(N)=O)C(=O)N[C@@H](CCC(=O)O)C(=O)N[C@@H](CCCCN)C(=O)N[C@@H](CCC(=O)O)C(=O)N[C@@H](CC(C)C)C(N)=O [SC33EK]	0.7 ± 0.4	75.4
CC[C@H](C)[C@H](NC(=O)[C@H](CC(C)C)NC(=O)[C@H](CCC(=O)O)NC(=O)[C@H](CCC(=O)O)NC(=O)[C@@H](NC(=O)[C@H](CCCCN)NC(=O)[C@H](CCCCN)NC(=O)[C@@H](NC(=O)[C@H](Cc1ccc(O)cc1)NC(=O)[C@H](CCC(=O)O)NC(=O)[C@H](CCC(=O)O)NC(=O)[C@@H](NC(=O)[C@H](CCCCN)NC(=O)[C@H](CCCCN)NC(=O)[C@H](CC(=O)O)NC(=O)[C@H](Cc1c[nH]c2ccccc12)NC(=O)[C@H](CCC(=O)O)NC(=O)[C@H](CCC(=O)O)NC(=O)[C@H](Cc1c[nH]c2ccccc12)NC(C)=O)[C@@H](C)CC)[C@@H](C)O)[C@@H](C)CC)C(=O)N[C@@H](CCCCN)C(=O)N[C@@H](CCCCN)C(=O)N[C@@H](CO)C(=O)N[C@@H](CCC(=O)O)C(=O)N[C@@H](CCC(=O)O)C(=O)N[C@@H](CCC(N)=O)C(=O)N[C@@H](CCC(N)=O)C(=O)N[C@@H](CCCCN)C(=O)N[C@@H](CCCCN)C(=O)N[C@@H](CC(N)=O)C(=O)N[C@@H](CCC(=O)O)C(=O)N[C@@H](CCCCN)C(=O)N[C@@H](CCC(=O)O)C(=O)N[C@@H](CC(C)C)C(=O)N[C@@H](CCCCN)C(N)=O [SC34EK, reference compound]	0.7 ± 0.2	74.3
CC[C@H](C)[C@H](NC(=O)[C@H](CC(C)C)NC(=O)[C@H](CCC(=O)O)NC(=O)[C@H](CCC(=O)O)NC(=O)[C@@H](NC(=O)[C@H](CCCCN)NC(=O)[C@H](CCCCN)NC(=O)[C@@H](NC(=O)[C@H](Cc1ccc(O)cc1)NC(=O)[C@H](CCC(=O)O)NC(=O)[C@H](CCC(=O)O)NC(=O)[C@@H](NC(=O)[C@H](CCCCN)NC(=O)[C@H](CCCNC(=N)N)NC(=O)[C@H](CC(=O)O)NC(=O)[C@H](Cc1c[nH]c2ccccc12)NC(=O)[C@H](CCC(=O)O)NC(=O)[C@H](CCC(=O)O)NC(=O)[C@H](Cc1c[nH]c2ccccc12)NC(C)=O)[C@@H](C)CC)[C@@H](C)O)[C@@H](C)CC)C(=O)N[C@@H](CCCCN)C(=O)N[C@@H](CCCCN)C(=O)N[C@@H](CO)C(=O)N[C@@H](CCC(N)=O)C(=O)N[C@@H](CC(N)=O)C(=O)N[C@@H](CCC(N)=O)C(=O)N[C@@H](CCC(N)=O)C(=O)N[C@@H](CCC(=O)O)C(=O)N[C@@H](CCCCN)C(=O)N[C@@H](CC(N)=O)C(N)=O [WQ-EKN]	1.2 ± 0.1	64.3
CC[C@H](C)[C@H](NC(=O)[C@H](CCC(N)=O)NC(=O)[C@H](CCC(N)=O)NC(=O)[C@H](CC(N)=O)NC(=O)[C@H](CCC(N)=O)NC(=O)[C@H](CO)NC(=O)[C@H](CCCCN)NC(=O)[C@H](CCCCN)NC(=O)[C@@H](NC(=O)[C@H](CC(C)C)NC(=O)[C@H](CCC(=O)O)NC(=O)[C@H](CCC(=O)O)NC(=O)[C@@H](NC(=O)[C@H](CCCCN)NC(=O)[C@H](CCCCN)NC(=O)[C@@H](NC(=O)[C@H](Cc1ccc(O)cc1)NC(=O)[C@H](CCC(=O)O)NC(=O)[C@H](CCC(=O)O)NC(=O)[C@@H](NC(=O)[C@H](CCCCN)NC(=O)[C@H](CCCNC(=N)N)NC(=O)[C@H](CC(=O)O)NC(=O)[C@H](Cc1c[nH]c2ccccc12)NC(=O)[C@H](CCC(=O)O)NC(=O)[C@H](CCC(=O)O)NC(=O)[C@H](Cc1c[nH]c2ccccc12)NC(C)=O)[C@@H](C)CC)[C@@H](C)O)[C@@H](C)CC)[C@@H](C)CC)C(=O)N[C@@H](CC(=O)O)C(=O)N[C@@H](CC(C)C)C(N)=O [WQ-IDL, reference compound]	1.1 ± 0.1	63.8
